Values quoted from earlier work, collected in PMC12406664, “New derivatives of 6-nitrocoumarin-3-thiosemicarbazone exhibit improved antiparasitic activity in the placenta against Trypanosoma cruzi and Toxoplasma gondii” (Antimicrobial Agents and Chemotherapy, 2025).

Key:
T. gondii = test system: T. gondii; set-up: method as in ref 26 (a), 34 (e), 38 (f); settings: Fig. 2 literature compounds, ref 26 (a), 34 (e), 38 (f); cited from earlier work
T. cruzi = test system: T. cruzi; set-up: method as in ref 28 (b), 32, 33 (c, d); settings: Fig. 2 literature compounds, ref 28 (b), 32, 33 (c, d); cited from earlier work

SMILES | SI = EC50 (mammalian cell model) / IC50 (parasite) (T. gondii) | SI = EC50 (mammalian cell model) / IC50 (parasite) (T. cruzi)
COc1ccc(/C(COc2ccc(F)cc2)=N\NC(N)=S)cc1 [a] | 19 | 
C/C(=N\N=C1\NC(=O)CS1)c1cc2ccccc2oc1=O [e] | > 70 | 
O=C(O)c1cn(C2CC2)c2cc(N3CCN(Cc4ccc([N+](=O)[O-])o4)CC3)c(F)cc2c1=O [f] | 7 | 
O=C(Cc1c([N+](=O)[O-])c(=O)oc2ccccc12)c1cccnc1 [c] |  | 1.46
O=c1oc2c(O)c(O)ccc2cc1-c1ccccc1O [d] |  | 1.73
